PubChem BioAssay AID1259414, Drosophila RNAi Screening Center | 2018
The screen tested about 24,000 reagents; below is a random part of those that have a named target and a result. In the full data, about 1,210 (5%) were called active. 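Inactive calls also include excluded dsRNAs with several or no targets, genes unexpressed in JW18, and well A1, regardless of score.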

Aim: 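Fly genes that alter Wolbachia amount inside host cells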 (primary screen)
Cells: Drosophila JW18 cells infected with Wolbachia
Reagent: long dsRNA against Drosophila genes, 0.25 µg dsRNA per well of a 384-well plate
Duration: 5 days
Conditions: cells persistently infected with Wolbachia before knock-down; no added drug
Detection: 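Imaged fluorescence in situ signal for Wolbachia 23S rRNA per DAPI-counted host cell, given as a robust z-score within each plate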
Reading the numbers: Wolbachia per cell robust z: higher = more Wolbachia per host cell than the plate typical
Call rule: 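Active if absolute robust z reaches 1.5 in two or more of three replicates, leaving out multi- or no-target dsRNAs, genes unexpressed in JW18 and A1 wells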

CecA2 [DRSC16604] → Wolbachia per cell robust z, rep 1 = -0.519; Wolbachia per cell robust z, rep 2 = -0.716; Wolbachia per cell robust z, rep 3 = -0.969; activity call = inactive
His2Av [DRSC16702] → Wolbachia per cell robust z, rep 1 = -2.06; Wolbachia per cell robust z, rep 2 = 0.459; Wolbachia per cell robust z, rep 3 = -0.188; activity call = inactive
Tsen2 [DRSC01557] → Wolbachia per cell robust z, rep 1 = 0.236; Wolbachia per cell robust z, rep 2 = -0.177; Wolbachia per cell robust z, rep 3 = -1.97; activity call = inactive
Tsen2 [DRSC27827] → Wolbachia per cell robust z, rep 1 = 0.0201; Wolbachia per cell robust z, rep 2 = -0.584; Wolbachia per cell robust z, rep 3 = -0.522; activity call = inactive
Rbcn-3B [DRSC18574] → Wolbachia per cell robust z, rep 1 = 0.435; Wolbachia per cell robust z, rep 2 = -0.972; Wolbachia per cell robust z, rep 3 = -1.26; activity call = inactive
sty [DRSC22994] → Wolbachia per cell robust z, rep 1 = -0.858; Wolbachia per cell robust z, rep 2 = -2.28; Wolbachia per cell robust z, rep 3 = -0.867; activity call = inactive
sty [DRSC25779] → Wolbachia per cell robust z, rep 1 = 0.313; Wolbachia per cell robust z, rep 2 = -1.15; Wolbachia per cell robust z, rep 3 = -0.878; activity call = inactive
CG14326 [DRSC14805] → Wolbachia per cell robust z, rep 1 = 0.626; Wolbachia per cell robust z, rep 2 = 1.25; Wolbachia per cell robust z, rep 3 = 0.437; activity call = inactive
CG14326 [DRSC28069] → Wolbachia per cell robust z, rep 1 = 0.528; Wolbachia per cell robust z, rep 2 = 0.321; Wolbachia per cell robust z, rep 3 = 1.48; activity call = inactive
CG8858 [DRSC07290] → Wolbachia per cell robust z, rep 1 = 0.595; Wolbachia per cell robust z, rep 2 = -1.42; Wolbachia per cell robust z, rep 3 = 0.683; activity call = inactive
Gr22c [DRSC22081] → Wolbachia per cell robust z, rep 1 = 0.461; Wolbachia per cell robust z, rep 2 = 0.789; Wolbachia per cell robust z, rep 3 = -0.62; activity call = inactive
Gr22c [DRSC29715] → Wolbachia per cell robust z, rep 1 = -0.873; Wolbachia per cell robust z, rep 2 = 0.188; Wolbachia per cell robust z, rep 3 = -2.68; activity call = inactive
CG12594 [DRSC14532] → Wolbachia per cell robust z, rep 1 = -0.934; Wolbachia per cell robust z, rep 2 = -3.28; Wolbachia per cell robust z, rep 3 = -4.06; activity call = inactive
CG12594 [DRSC27229] → Wolbachia per cell robust z, rep 1 = 0.404; Wolbachia per cell robust z, rep 2 = 0.424; Wolbachia per cell robust z, rep 3 = -0.685; activity call = inactive
CG15387 [DRSC00401] → Wolbachia per cell robust z, rep 1 = 0.429; Wolbachia per cell robust z, rep 2 = 0.214; Wolbachia per cell robust z, rep 3 = 0.111; activity call = inactive
nmdyn-D6 [DRSC20355] → Wolbachia per cell robust z, rep 1 = 0.347; Wolbachia per cell robust z, rep 2 = -0.539; Wolbachia per cell robust z, rep 3 = 0.668; activity call = inactive
nmdyn-D6 [DRSC41576] → Wolbachia per cell robust z, rep 1 = -0.895; Wolbachia per cell robust z, rep 2 = 0.464; Wolbachia per cell robust z, rep 3 = 1.18; activity call = inactive
Cyp4ae1 [DRSC18455] → Wolbachia per cell robust z, rep 1 = -1.83; Wolbachia per cell robust z, rep 2 = -5.03; Wolbachia per cell robust z, rep 3 = 0.165; activity call = inactive
Cyp4ae1 [DRSC27698] → Wolbachia per cell robust z, rep 1 = -0.983; Wolbachia per cell robust z, rep 2 = -0.881; Wolbachia per cell robust z, rep 3 = -2.95; activity call = inactive
CG11777 [DRSC06081] → Wolbachia per cell robust z, rep 1 = -1.19; Wolbachia per cell robust z, rep 2 = -0.227; Wolbachia per cell robust z, rep 3 = -0.433; activity call = inactive
CG11777 [DRSC26750] → Wolbachia per cell robust z, rep 1 = 0.0224; Wolbachia per cell robust z, rep 2 = -2.07; Wolbachia per cell robust z, rep 3 = -0.0783; activity call = inactive
Cndp2 [DRSC04873] → Wolbachia per cell robust z, rep 1 = 0.597; Wolbachia per cell robust z, rep 2 = -0.0081; Wolbachia per cell robust z, rep 3 = -3.39; activity call = inactive
Jhbp16 [DRSC15039] → Wolbachia per cell robust z, rep 1 = 0.78; Wolbachia per cell robust z, rep 2 = 0.775; Wolbachia per cell robust z, rep 3 = 0.971; activity call = inactive
Vps36 [DRSC09785] → Wolbachia per cell robust z, rep 1 = 0.0724; Wolbachia per cell robust z, rep 2 = 0.255; Wolbachia per cell robust z, rep 3 = 1.33; activity call = inactive

Sorted by “Wolbachia per cell robust z, rep 3” (high to low): some entries from above.
nmdyn-D6 [DRSC20355] → Wolbachia per cell robust z, rep 1 = 0.347; Wolbachia per cell robust z, rep 2 = -0.539; Wolbachia per cell robust z, rep 3 = 0.668; activity call = inactive
CG15387 [DRSC00401] → Wolbachia per cell robust z, rep 1 = 0.429; Wolbachia per cell robust z, rep 2 = 0.214; Wolbachia per cell robust z, rep 3 = 0.111; activity call = inactive
CG12594 [DRSC27229] → Wolbachia per cell robust z, rep 1 = 0.404; Wolbachia per cell robust z, rep 2 = 0.424; Wolbachia per cell robust z, rep 3 = -0.685; activity call = inactive
